Data: patent US20230265407A1, “HUMAN RECOMBINANT ACE2-FC MUTANTS THAT DECOUPLE ANTI-SARS-COV-2 ACTIVITY FROM CARD[…]” (Northwestern University, priority 2020, published 2023)

Tested on: Ang II
Assay: Mass spectrometry analysis of peptides generated from Ang II by ACE2-Fc
Conditions: Ang II peptide as substrate

wild-type ACE2-Fc: ectodomain of human ACE2 fused to the N-terminus of Fc domain of human IgG1; forms a dimer
generation of Ang 1-7 from Ang II by mass spectrometry: enzymatic cleavage of Ang II and the generation of Ang 1-7
